Compound potency records, mixed from different reports. Data source: NIAID ChemDB in PubChem.

All rows: enzyme or target tests; species: Hepatitis C virus; protein: Nonstructural protein 5B

Conditions beyond the fields shown may differ between rows.

compound	strain	dose	read by	read-out	value
COc1ccc(CCC2(C3CCCC3)CC(O)=C(Sc3nc4nc[nH]c4c(=O)[nH]3)C(=O)O2)cc1	-	-	-	IC50	<1 µM
COc1nc(NCCN(C)C)nc(Nc2ccc3[nH]ncc3c2)n1	-	10 µg/mL	-	inhibition	46%
CNC(=O)c1c(-c2ccc(F)cc2)oc2cc(N(Cc3ccc(C(=O)OC)cc3)S(C)(=O)=O)c(OC(C)C)cc12	-	-	-	IC50	≤0.5 µM
COc1cc(OC)c(CCC2(C3CCCC3)CC(O)=C(Sc3nnc(-c4cccs4)n3C)C(=O)O2)cc1Cl	-	-	-	IC50	<1 µM
C=CCN(c1cc2oc(-c3ccc(F)cc3)c(C(=O)NC)c2cc1OC(C)C)S(C)(=O)=O	-	-	-	IC50	≤0.5 µM
COCCNc1nc(Nc2ccc3[nH]ncc3c2)nc(OC)n1	-	10 µg/mL	-	inhibition	90%
CNC(=O)c1c(-c2ccc(F)cc2)oc2cc(N(C)S(C)(=O)=O)c(OCc3ccccc3OC(F)F)cc12	-	-	-	IC50	≤0.5 µM
CNC(=O)CN1CCN(c2nc(Nc3ccc4cn[nH]c4c3)nc(OC)n2)CC1	-	10 µg/mL	-	inhibition	32%
CNC(=O)c1c(-c2ccccc2)oc2cc(C)c(OC)cc12	-	-	-	IC50	≤0.5 µM
CC(C)COc1ccc(CCC2(C3CCCC3)CC(=O)CC(=O)O2)cc1F	-	-	-	IC50	1–10 µM
COc1c(-c2ccc3cc(NS(C)(=O)=O)ccc3c2)cc(-n2ccc(=O)[nH]c2=O)cc1C(C)(C)C	GT 2b#1	-	nucleotide incorporation	IC50	>20 µM
COc1c(F)cc(CCC2(C3CCCC3)CC(=O)CC(=O)O2)cc1F	-	-	-	IC50	1–10 µM
COc1nc(Nc2ccc3[nH]ncc3c2)nc(N2CCN(CCO)CC2)n1	-	10 µg/mL	-	inhibition	68%
CNC(=O)c1c(-c2ccc(F)cc2)oc2cc(NC(C)=O)c(OC)cc12	-	-	-	IC50	≤0.5 µM
Cc1ccc(S(=O)(=O)Oc2cc(C(C)(C)C)c(SC3=C(O)CC(CCc4ccc(O)cc4)(C4CCCC4)OC3=O)cc2C)cc1	-	-	-	IC50	10–50 µM
CNC(=O)C1CCN(c2nc(Nc3ccc4[nH]ncc4c3)nc(OC)n2)CC1	-	10 µg/mL	-	inhibition	45%
CNC(=O)c1c(-c2ccc(F)cc2)oc2cc(-c3c(C)noc3C)c(OCCCO)cc12	-	-	-	IC50	≤0.5 µM
COc1ccccc1CCC1(C2CCCC2)CC(=O)CC(=O)O1	-	-	-	IC50	10–50 µM

A second listing of 3 rows from above:

compound	strain	dose	read by	read-out	value
CNC(=O)c1c(-c2ccc(F)cc2)oc2cc(N(Cc3ccc(C(=O)OC)cc3)S(C)(=O)=O)c(OC(C)C)cc12	-	-	-	IC50	≤0.5 µM
CC(C)COc1ccc(CCC2(C3CCCC3)CC(=O)CC(=O)O2)cc1F	-	-	-	IC50	1–10 µM
COc1ccccc1CCC1(C2CCCC2)CC(=O)CC(=O)O1	-	-	-	IC50	10–50 µM

Blank or dashed fields: not listed here. Percent inhibition refers to the dose given; in toxicity tests it is the harm to the cells. ICn is the concentration giving n% inhibition. a–b is a range or a potency band.